{"source": "PubChem BioAssay AID504811 (Drosophila RNAi Screening Center, 2011)", "aim": "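Fly genes affecting Listeria uptake, escape from the vacuole or multiplication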 (primary screen)", "cell system": "Drosophila SL2 cells", "reagents": "long dsRNA against Drosophila genes", "challenge": "infection with GFP-expressing Listeria monocytogenes; dose and duration not given", "read-out": "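Cells infected with GFP-tagged Listeria were imaged, and bacterial fluorescence was judged visually against control wells as reduced, increased or clustered in dots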", "active means": "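a dsRNA counts as a hit when bacterial fluorescence is plainly weaker, stronger or dotted in clusters relative to control wells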", "meaning of the calls": "active = hit; inactive = not a hit", "note": "Only reagents picked out of a larger screen are listed. 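Only hits are listed, without non-hit dsRNAs or numeric scores; replicate 2 has entries for just two rows.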 The numbers tell different reagents against one gene apart. A plus sign joins genes that one reagent is predicted to hit. The record does not give: the amount of reagent, the time to read-out."}
{"target gene": "betaTub56D", "reagent no.": 1, "infection phenotype, replicate 1": "less bacterial GFP than control wells (fewer infected cells or weaker signal per cell)", "outcome": "active"}
{"target gene": "gammaCOP", "reagent no.": 1, "infection phenotype, replicate 1": "less bacterial GFP than control wells (fewer infected cells or weaker signal per cell)", "outcome": "active"}
{"target gene": "Rpn6", "reagent no.": 1, "infection phenotype, replicate 1": "less bacterial GFP than control wells (fewer infected cells or weaker signal per cell)", "outcome": "active"}
{"target gene": "Syx5", "reagent no.": 1, "infection phenotype, replicate 1": "less bacterial GFP than control wells (fewer infected cells or weaker signal per cell)", "outcome": "active"}
{"target gene": "Rab2", "reagent no.": 1, "infection phenotype, replicate 1": "less bacterial GFP than control wells (fewer infected cells or weaker signal per cell)", "outcome": "active"}
{"target gene": "comt", "reagent no.": 1, "infection phenotype, replicate 1": "less bacterial GFP than control wells (fewer infected cells or weaker signal per cell)", "outcome": "active"}
{"target gene": "CG10660", "reagent no.": 1, "infection phenotype, replicate 1": "bacterial GFP seen as punctate clusters; pointing to bacteria failing to leave the vacuole", "outcome": "active"}
{"target gene": "Ald1", "reagent no.": 1, "infection phenotype, replicate 1": "stronger bacterial GFP per infected cell than controls", "outcome": "active"}
{"target gene": "Skp2", "reagent no.": 1, "infection phenotype, replicate 1": "stronger bacterial GFP per infected cell than controls", "outcome": "active"}
{"target gene": "Prosbeta7", "reagent no.": 1, "infection phenotype, replicate 1": "less bacterial GFP than control wells (fewer infected cells or weaker signal per cell)", "outcome": "active"}
{"target gene": "sncRNA:430e + His2A:CG33859 + His2A:CG33817 + 37 more", "reagent no.": 1, "infection phenotype, replicate 1": "stronger bacterial GFP per infected cell than controls", "outcome": "active"}
{"target gene": "Bx42", "reagent no.": 1, "infection phenotype, replicate 1": "less bacterial GFP than control wells (fewer infected cells or weaker signal per cell)", "outcome": "active"}
{"target gene": "pea", "reagent no.": 1, "infection phenotype, replicate 1": "less bacterial GFP than control wells (fewer infected cells or weaker signal per cell)", "outcome": "active"}
{"target gene": "nebu", "reagent no.": 1, "infection phenotype, replicate 1": "less bacterial GFP than control wells (fewer infected cells or weaker signal per cell)", "outcome": "active"}
{"target gene": "Slh", "reagent no.": 1, "infection phenotype, replicate 1": "less bacterial GFP than control wells (fewer infected cells or weaker signal per cell)", "outcome": "active"}
{"target gene": "RpL13A", "reagent no.": 1, "infection phenotype, replicate 1": "stronger bacterial GFP per infected cell than controls", "outcome": "active"}
{"target gene": "Npc1a", "reagent no.": 1, "infection phenotype, replicate 1": "bacterial GFP seen as punctate clusters; pointing to bacteria failing to leave the vacuole", "outcome": "active"}
{"target gene": "FASN1", "reagent no.": 1, "infection phenotype, replicate 1": "less bacterial GFP than control wells (fewer infected cells or weaker signal per cell)", "outcome": "active"}
{"target gene": "RpL19", "reagent no.": 1, "infection phenotype, replicate 1": "stronger bacterial GFP per infected cell than controls", "outcome": "active"}
{"target gene": "Nup98-96", "reagent no.": 1, "infection phenotype, replicate 1": "stronger bacterial GFP per infected cell than controls", "outcome": "active"}
{"target gene": "RpS9", "reagent no.": 1, "infection phenotype, replicate 1": "stronger bacterial GFP per infected cell than controls", "outcome": "active"}
{"target gene": "E2f1", "reagent no.": 1, "infection phenotype, replicate 1": "stronger bacterial GFP per infected cell than controls", "outcome": "active"}
{"target gene": "Ykt6", "reagent no.": 1, "infection phenotype, replicate 1": "less bacterial GFP than control wells (fewer infected cells or weaker signal per cell)", "outcome": "active"}
{"target gene": "RpL39", "reagent no.": 1, "infection phenotype, replicate 1": "stronger bacterial GFP per infected cell than controls", "outcome": "active"}
{"target gene": "Pstk + CG14210 + Tim9b", "reagent no.": 1, "infection phenotype, replicate 1": "bacterial GFP seen as punctate clusters; pointing to bacteria failing to leave the vacuole", "outcome": "active"}
{"target gene": "Rpt1", "reagent no.": 1, "infection phenotype, replicate 1": "less bacterial GFP than control wells (fewer infected cells or weaker signal per cell)", "outcome": "active"}
{"target gene": "Rpn1", "reagent no.": 1, "infection phenotype, replicate 1": "less bacterial GFP than control wells (fewer infected cells or weaker signal per cell)", "outcome": "active"}
{"target gene": "Act57B", "reagent no.": 1, "infection phenotype, replicate 1": "less bacterial GFP than control wells (fewer infected cells or weaker signal per cell)", "outcome": "active"}
{"target gene": "Hel25E", "reagent no.": 1, "infection phenotype, replicate 1": "less bacterial GFP than control wells (fewer infected cells or weaker signal per cell)", "outcome": "active"}
{"target gene": "RpS4", "reagent no.": 1, "infection phenotype, replicate 1": "stronger bacterial GFP per infected cell than controls", "outcome": "active"}
{"target gene": "Nxt1", "reagent no.": 1, "infection phenotype, replicate 1": "less bacterial GFP than control wells (fewer infected cells or weaker signal per cell)", "outcome": "active"}
{"target gene": "Cdc42", "reagent no.": 1, "infection phenotype, replicate 1": "less bacterial GFP than control wells (fewer infected cells or weaker signal per cell)", "outcome": "active"}
{"target gene": "Prosalpha7", "reagent no.": 1, "infection phenotype, replicate 1": "less bacterial GFP than control wells (fewer infected cells or weaker signal per cell)", "outcome": "active"}
{"target gene": "Arpc1", "reagent no.": 1, "infection phenotype, replicate 1": "less bacterial GFP than control wells (fewer infected cells or weaker signal per cell)", "outcome": "active"}
{"target gene": "RpL5", "reagent no.": 1, "infection phenotype, replicate 1": "stronger bacterial GFP per infected cell than controls", "outcome": "active"}
{"target gene": "CG30349", "reagent no.": 1, "infection phenotype, replicate 1": "less bacterial GFP than control wells (fewer infected cells or weaker signal per cell)", "outcome": "active"}
{"target gene": "shrb", "reagent no.": 1, "infection phenotype, replicate 1": "less bacterial GFP than control wells (fewer infected cells or weaker signal per cell)", "outcome": "active"}
{"target gene": "Sf3b2", "reagent no.": 1, "infection phenotype, replicate 1": "stronger bacterial GFP per infected cell than controls", "outcome": "active"}
{"target gene": "alc", "reagent no.": 1, "infection phenotype, replicate 1": "stronger bacterial GFP per infected cell than controls", "outcome": "active"}
{"target gene": "Rab11", "reagent no.": 1, "infection phenotype, replicate 1": "less bacterial GFP than control wells (fewer infected cells or weaker signal per cell)", "outcome": "active"}
{"target gene": "Sumo", "reagent no.": 1, "infection phenotype, replicate 1": "less bacterial GFP than control wells (fewer infected cells or weaker signal per cell)", "outcome": "active"}
{"target gene": "SmD3", "reagent no.": 1, "infection phenotype, replicate 1": "stronger bacterial GFP per infected cell than controls", "outcome": "active"}
{"target gene": "RpL32", "reagent no.": 1, "infection phenotype, replicate 1": "stronger bacterial GFP per infected cell than controls", "infection phenotype, replicate 2": "stronger bacterial GFP per infected cell than controls", "outcome": "active"}
{"target gene": "alphaTub84D", "reagent no.": 1, "infection phenotype, replicate 1": "less bacterial GFP than control wells (fewer infected cells or weaker signal per cell)", "outcome": "active"}
{"target gene": "Slu7", "reagent no.": 1, "infection phenotype, replicate 1": "stronger bacterial GFP per infected cell than controls", "outcome": "active"}
{"target gene": "Prp8", "reagent no.": 1, "infection phenotype, replicate 1": "less bacterial GFP than control wells (fewer infected cells or weaker signal per cell)", "outcome": "active"}
{"target gene": "ush", "reagent no.": 1, "infection phenotype, replicate 1": "less bacterial GFP than control wells (fewer infected cells or weaker signal per cell)", "outcome": "active"}
{"target gene": "Vha68-2", "reagent no.": 1, "infection phenotype, replicate 1": "less bacterial GFP than control wells (fewer infected cells or weaker signal per cell)", "outcome": "active"}
{"target gene": "Taf6", "reagent no.": 1, "infection phenotype, replicate 1": "less bacterial GFP than control wells (fewer infected cells or weaker signal per cell)", "outcome": "active"}
{"target gene": "Rca1", "reagent no.": 1, "infection phenotype, replicate 1": "stronger bacterial GFP per infected cell than controls", "outcome": "active"}
{"target gene": "Pp4-19C", "reagent no.": 1, "infection phenotype, replicate 1": "less bacterial GFP than control wells (fewer infected cells or weaker signal per cell)", "outcome": "active"}
{"target gene": "RpL14", "reagent no.": 1, "infection phenotype, replicate 1": "stronger bacterial GFP per infected cell than controls", "outcome": "active"}
{"target gene": "mv", "reagent no.": 1, "infection phenotype, replicate 1": "bacterial GFP seen as punctate clusters; pointing to bacteria failing to leave the vacuole", "outcome": "active"}
{"target gene": "mv", "reagent no.": 2, "infection phenotype, replicate 1": "bacterial GFP seen as punctate clusters; pointing to bacteria failing to leave the vacuole", "outcome": "active"}
{"target gene": "Act5C", "reagent no.": 1, "infection phenotype, replicate 1": "less bacterial GFP than control wells (fewer infected cells or weaker signal per cell)", "outcome": "active"}
{"target gene": "SREBP", "reagent no.": 1, "infection phenotype, replicate 1": "less bacterial GFP than control wells (fewer infected cells or weaker signal per cell)", "outcome": "active"}
{"target gene": "TfIIB", "reagent no.": 1, "infection phenotype, replicate 1": "less bacterial GFP than control wells (fewer infected cells or weaker signal per cell)", "outcome": "active"}
{"target gene": "CycE", "reagent no.": 1, "infection phenotype, replicate 1": "stronger bacterial GFP per infected cell than controls", "outcome": "active"}
{"target gene": "CycE", "reagent no.": 2, "infection phenotype, replicate 1": "stronger bacterial GFP per infected cell than controls", "outcome": "active"}
{"target gene": "Rpt5", "reagent no.": 1, "infection phenotype, replicate 1": "less bacterial GFP than control wells (fewer infected cells or weaker signal per cell)", "outcome": "active"}
